Test system: HIV-1
Assay: Inhibition of HIV-1 replication in MT-2 lymphocytes
Details: MT-2 CC50 / HIV-1 IC50

Substance | TI, therapeutic index (CC50/IC50)
4-epi-hyperolactone C [compound 16] | 13.3
24-epi-biyouyanagin A [2a] | 14.4

From article PMC2614900 (Journal of the American Chemical Society, 2008)
